Data as given in PMC3166295 (PLoS ONE, 2011).

Test system: 8H5 mAb
Assay: Mimotope ELISA (HBc-V-1b coated), binding specificity with monoclonal antibodies
Settings: HBc-V-1b fusion protein coated at 5 µg/ml; tested with 8H5, other H5 mAbs, anti-HEV, anti-HCV and anti-HBV core mAbs

In the case of `CC[C@H](C)[C@H](NC(=O)[C@@H](NC(=O)[C@H](CC(C)C)NC(=O)[C@@H]1CCCN1C(=O)[C@@H](NC(=O)[C@@H](N)CCC(=O)O)[C@@H](C)O)[C@@H](C)O)C(=O)N[C@@H](C)C(=O)NCC(=O)N[C@@H](CC(C)C)C(=O)N[C@@H](CCCCN)C(=O)N[C@@H](CC(C)C)C(=O)N[C@@H](CCCCN)C(=O)O` [V-1b], the “antigenic specificity of the ELISA produced with V-1b fused to HBcAg” value is reported as “exclusively specific for 8H5”.
